Among the data in patent publication US20090318341A1 are fold loss of potency against synthetic OSK1 and hKv1.1: IC50 [pM], block of K+ current, whole cell patch clamp values, retold here.

Assay [1] deals with human Kv1.3 channel (human) (UniProt P22001). In words: cell-based or functional assay.
Assay [2] has as its target human Kv1.1 channel (human) (UniProt Q09470). In words: cell-based or functional assay.

With Fc-L10-OSK1[K7S] (Fc fusion), in assay [1], the fold loss of potency against synthetic OSK1 stood at 10 fold. In assay [2], this substance displayed a hKv1.1: IC50 [pM], block of K+ current, whole cell patch clamp of 100000 pM. In the case of “Fc-L10-OSK1[K7S, E16K, K20D] (Fc fusion)”, the hKv1.1: IC50 [pM], block of K+ current, whole cell patch clamp in assay [2] stood at 10000 pM.
